Anti-infective test results gathered from many reports (values: NIAID ChemDB through PubChem).

Lines come from different laboratories, so protocols vary. An empty or dashed field is not shown. MIC bound: limit read from a one-dose screen. ICn is the concentration giving n% inhibition. Inhibition is in % at the dose shown (toxicity tests: loss of growth or viability).

structure,read-out,read by,dose,agent,protein,strain,test,value
Cc1ccc(-c2cncc(N3CCN(c4ccccn4)CC3)n2)cc1,IC50,,,Cytomegalovirus,UL97 kinase,,target,<10 µM
Cc1cc(-c2ccccc2Cl)c(C(=O)O)[nH]1,MIC,,,Mycobacterium tuberculosis,,H37Rv,culture,>100 µg/mL
c1ccc(C2CN(c3ccccc3)CCN2c2cnccn2)cc1,inhibition,,1 µM,Cytomegalovirus,UL97 kinase,,target,<50%
S=C1SCN(Cc2cccs2)CN1Cc1cccs1,MIC bound,BACTEC,,Mycobacterium tuberculosis,,H37Rv,culture,>12.5 µg/mL
CC(=O)c1ccc(-c2cncc(N3CCC(c4ccccc4)CC3)n2)cc1,IC50,,,Cytomegalovirus,UL97 kinase,,target,<10 µM
CON/C=C(C#N)/C=C/C=Nc1ccc(S(=O)(=O)Nc2onc(C)c2C)cc1,MIC bound,BACTEC,,Mycobacterium tuberculosis,,H37Rv,culture,>12.5 µg/mL
COc1ccccc1N1CCN(c2cncc(-c3ccc(N(C)C)cc3)n2)CC1,inhibition,,10 µM,Cytomegalovirus,UL97 kinase,,target,>15%
NS(=O)(=O)c1cc2c(cc1Cl)NC(C(=O)c1cc(=O)c3ccc(O)cc3o1)=NS2(=O)=O,MIC bound,resazurin,,Mycobacterium tuberculosis,,H37Rv,culture,>6.25 µg/mL
COc1ccc(-c2cncc(N3CCN(c4ccccn4)CC3)n2)cc1OC,inhibition,,1 µM,Cytomegalovirus,UL97 kinase,,target,<50%
O=[N+]([O-])c1ccc(N2CCCCC2)cc1,MIC,,,Mycobacterium tuberculosis,,H37Rv,culture,100 µg/mL
Fc1ccc(N2CCCCC2)c(NC(=S)c2ccncc2)c1,inhibition,kinase activity,10 µM,,DYRK2,,host protein,46%
Nc1ccc2cc(S(=O)(=O)O)ccc2c1,MIC,,,Mycobacterium tuberculosis,,H37Rv,culture,100 µg/mL
CCOC(=O)c1nc(C)cnc1N,MIC,BACTEC,,Mycobacterium tuberculosis,,H37Rv,culture,≥12.5 µg/mL
CN(C)C1CCc2ccc3ccccc3c2C1O.Cl,MIC,,,Mycobacterium tuberculosis,,H37Rv,culture,100 µg/mL
CCN(CC)CCNc1ccc([N+](=O)[O-])c2sc3ccccc3c(=O)c12,MIC bound,BACTEC,,Mycobacterium tuberculosis,,H37Rv,culture,≤12.5 µg/mL
NC(=O)c1ccco1,MIC,,,Mycobacterium tuberculosis,,H37Rv,culture,>100 µg/mL
COc1ccccc1C1SC(c2ccccc2)(c2ccccc2)OC1=O,MIC bound,BACTEC,,Mycobacterium tuberculosis,,H37Rv,culture,>12.5 µg/mL
O=S(=O)(O)c1cccc2cccnc12,MIC,,,Mycobacterium tuberculosis,,H37Rv,culture,>100 µg/mL
Cc1ccnc(NS(=O)(=O)c2ccc(N=Nc3c(N)nc(N)nc3N)cc2)n1,inhibition,BACTEC,12.5 µg/mL,Mycobacterium tuberculosis,,H37Rv,culture,84%
Cc1ccc(-c2cncc(N3CCN(c4ccccc4)CC3)n2)cc1,inhibition,,1 µM,Cytomegalovirus,UL97 kinase,,target,<50%
CC(=O)Nc1ccc(NS(C)(=O)=O)cc1,MIC,,,Mycobacterium tuberculosis,,H37Rv,culture,>100 µg/mL

The first 2 rows once more:

structure | read-out | read by | dose | agent | protein | strain | test | value
Cc1ccc(-c2cncc(N3CCN(c4ccccn4)CC3)n2)cc1 | IC50 |  |  | Cytomegalovirus | UL97 kinase |  | target | <10 µM
Cc1cc(-c2ccccc2Cl)c(C(=O)O)[nH]1 | MIC |  |  | Mycobacterium tuberculosis |  | H37Rv | culture | >100 µg/mL